For the assay, the system named is plasmid-DNA (dsDNA). The assay is described as follows: Fluorescence-based dsDNA-binding assay (SYBR Gold, plasmid DNA). Particulars: TAT-I24 as reference, three independent experiments in duplicates.

We go through one sequence from PMC12692169, “Identification of Novel TAT-I24-Related Peptides with Antiviral Activities” (International Journal of Molecular Sciences, 2025).

As to GRKKRRQRRRPPQ [TAT, reference compound], the “dsDNA-binding (reduction in SYBR Gold fluorescence)” value was “decrease in fluorescence intensity but to a lower extent compared to TAT-I24”.
